Test [1] deals with Pseudomonas aeruginosa. The test is described as follows: Antibacterial activity against Pseudomonas aeruginosa PAO397 [PAO1 d(mexAB-oprM) d(mexCD-oprJ) d(mexEF-oprN) d(mexJKL) d(mexXY) d(opmH)] (CO-ADD:GN_211); MIC in CAMBH media using NBS plates, by OD(600). In kind it is functional. Particulars: Concentration 300.0 ug.mL-1.
The test system of test [2] is Acinetobacter baumannii. In words: Antibacterial activity against Acinetobacter baumannii ATCC 19606 (CO-ADD:GN_034); MIC in CAMBH media using NBS plates, by OD600. The note with it: Concentration 300.0 ug.mL-1.

The values that follow come from ChEMBL document CHEMBL4513160, “CO-ADD screening of MMV (CH) - Small Polar Library”.

With `NC(CF)c1ccc(F)cc1` (configuration not stated), the inhibition came out at 2.83% in test [1] and 7.81% in test [2].
